Laboratory results as given in patent US11083707B2, “Substituted indoline derivatives as dengue viral replication inhibitors” (JANSSEN PHARMACEUTICALS, INC., priority 2017, dated 2021).

Test system: DENV-2 16681 strain
Assay: DENV-2 antiviral assay (eGFP fluorescence, Vero cells)
Type: cell-based, Dengue virus
Conditions: SI=CC50/EC50, DENV-2 antiviral assay
Protocol: The antiviral activity of all the compounds of the invention was tested against the DENV-2 16681 strain which was labeled with enhanced green fluorescent protein (eGPF). The culture medium consists of minimal essential medium supplemented with 2% of heat-inactivated fetal calf serum, 0.04% gentamycin (50 mg/mL) and 2 mM of L-glutamine. Vero cells, obtained from ECACC, were suspended in culture medium and 25 μL was added to 384-well plates (2500 cells/well), which already contain the antiviral compounds. Typically, these plates contain a 5-fold serial dilution of 9 dilution steps of the test compound at 200 times the final concentration in 100% DMSO (200 nL). […] Finally, each plate contains wells which are assigned as virus controls (containing cells and virus in the absence of compound), cell controls (containing cells in the absence of virus and compound) and medium controls (containing medium in the absence of cells, virus and compounds). To the wells assigned as medium control, 25 μL of culture medium was added instead of Vero cells. Once the cells were added to the plates, the plates were incubated for 30 minutes at room temperature to allow the cells to distribute evenly within the wells. Next, the plates were incubated in a fully humidified incubator (37° C., 5% CO2) until the next day. Then, DENV-2 strain 16681, labeled with eGFP, was added at a multiplicity of infection (MOI) of 0.5. Therefore, 15 μL of virus suspension was added to all the wells containing test compound and to the wells assigned as virus control. In parallel, 15 μL of culture medium was added to the medium and cell controls. Next, the plates were incubated for 3 days in a fully humidified incubator (37° C., 5% CO2). At the day of the read out, the eGFP fluorescence was measured using an automated fluorescence microscope at 488 nm (blue laser). Using an in-house LIMS system, inhibition dose response curves for each compound were calculated and the half maximal effective concentration (EC50) was determined. Therefore, the percent inhibition (I) for every test concentration is calculated using the following formula: I=100*(ST-SCC)/(SVC-SCC), ST, SCC and SVC are the amount of eGFP signal in the test compound, cell control and virus control wells, respectively. The EC50 represents the concentration of a compound at which the virus replication is inhibited with 50%, as measured by a 50% reduction of the eGFP fluorescent intensity compared to the virus control. The EC50 is calculated using linear interpolation (Table 1).

## COc1cc(NC(C(=O)N2CCc3ccc(C(F)(F)F)cc32)c2ccc(F)cc2OCCO)cc(-n2cncn2)c1 (racemic) [Compound 1, 2-(4-fluoro-2-(2-hydroxyethoxy)phenyl)-2-((3-methoxy-5-(1H-1,2,4-triazol-1-yl)phenyl)amino)-1-(6-(trifluoromethyl)indolin-1-yl)ethanone]
  SI: 3350

## COc1cc(NC(C(=O)N2CCc3cc(OC)c(C(F)(F)F)cc32)c2ccc(F)cc2OCCO)cc(-n2cncn2)c1 (racemic) [Compound 2, 2-(4-fluoro-2-(2-hydroxyethoxy)phenyl)-2-((3-methoxy-5-(1H-1,2,4-triazol-1-yl)phenyl)amino)-1-(5-methoxy-6-(trifluoromethyl)indolin-1-yl)ethanone]
  SI: 4000

## COc1cc(NC(C(=O)N2CCc3ccc(OC(F)(F)F)cc32)c2ccc(F)cc2OCCO)cc(-n2cncn2)c1 (racemic) [Compound 3, 2-(4-fluoro-2-(2-hydroxyethoxy)phenyl)-2-((3-methoxy-5-(1H-1,2,4-triazol-1-yl)phenyl)amino)-1-(6-(trifluoromethoxy)indolin-1-yl)ethanone]
  SI: 5210

## COc1cc(NC(C(=O)N2CCc3cc(OC)c(C(F)(F)F)cc32)c2ccc(Cl)cc2OCCO)cc(-n2cncn2)c1 (racemic) [Compound 5, 2-(4-chloro-2-(2-hydroxyethoxy)phenyl)-2-((3-methoxy-5-(1H-1,2,4-triazol-1-yl)phenyl)amino)-1-(5-methoxy-6-(trifluoromethyl)indolin-1-yl)ethanone]
  SI: 11200

## COc1cc(NC(C(=O)N2CCc3ccc(OC(F)(F)F)cc32)c2ccc(Cl)cc2OCCO)cc(-n2cncn2)c1 (racemic) [Compound 6, 2-(4-chloro-2-(2-hydroxyethoxy)phenyl)-2-((3-methoxy-5-(1H-1,2,4-triazol-1-yl)phenyl)amino)-1-(6-(trifluoromethoxy)indolin-1-yl)ethanone]
  SI: 3370

## COc1cc(NC(C(=O)N2CCc3cc(F)c(C(F)(F)F)cc32)c2ccc(Cl)cc2OCCO)cc(-n2cncn2)c1 (racemic) [Compound 7, 2-(4-chloro-2-(2-hydroxyethoxy)phenyl)-1-(5-fluoro-6-(trifluoromethyl)indolin-1-yl)-2-((3-methoxy-5-(1H-1,2,4-triazol-1-yl)phenyl)amino)ethanone]
  SI: 3410

## COc1cc(NC(C(=O)N2CCc3cc(OC)c(OC(F)(F)F)cc32)c2ccc(Cl)cc2OCCO)cc(-n2cncn2)c1 (racemic) [Compound 8, 2-(4-chloro-2-(2-hydroxyethoxy)phenyl)-2-((3-methoxy-5-(1H-1,2,4-triazol-1-yl)phenyl)amino)-1-(5-methoxy-6-(trifluoromethoxy)indolin-1-yl)ethanone]
  SI: 4410

## COc1cc(NC(C(=O)N2CCc3cc(F)c(OC(F)(F)F)cc32)c2ccc(Cl)cc2OCCO)cc(-n2cncn2)c1 (racemic) [Compound 9, 2-(4-chloro-2-(2-hydroxyethoxy)phenyl)-1-(5-fluoro-6-(trifluoromethoxy)indolin-1-yl)-2-((3-methoxy-5-(1H-1,2,4-triazol-1-yl)phenyl)amino)ethanone]
  SI: 2850

## COc1cc(NC(C(=O)N2CCc3c(C)cc(OC(F)(F)F)cc32)c2ccc(Cl)cc2OCCO)cc(-n2cncn2)c1 (racemic) [Compound 10, 2-(4-chloro-2-(2-hydroxyethoxy)phenyl)-2-((3-methoxy-5-(1H-1,2,4-triazol-1-yl)phenyl)amino)-1-(4-methyl-6-(trifluoromethoxy)indolin-1-yl)ethanone]
  SI: 26600

## COc1cc(NC(C(=O)N2CCc3ccc(C(F)(F)F)cc32)c2ccc(Cl)cc2OCCCC(=O)O)cc(-n2cncn2)c1 (racemic) [Compound 11, 4-(5-chloro-2-(1-((3-methoxy-5-(1H-1,2,4-triazol-1-yl)phenyl)amino)-2-oxo-2-(6-(trifluoromethyl)indolin-1-yl)ethyl)phenoxy)butanoic acid]
  SI: 53500

## COc1cc(NC(C(=O)N2CCc3cc(OC)c(C(F)(F)F)cc32)c2ccc(Cl)cc2OCCCC(=O)O)cc(-n2cncn2)c1 (racemic) [Compound 12, 4-(5-chloro-2-(1-((3-methoxy-5-(1H-1,2,4-triazol-1-yl)phenyl)amino)-2-(5-methoxy-6-(trifluoromethyl)indolin-1-yl)-2-oxoethyl)phenoxy)butanoic acid]
  SI: 5660

## COc1cc(NC(C(=O)N2CCc3ccc(OC(F)(F)F)cc32)c2ccc(Cl)cc2OCCCC(=O)O)cc(-n2cncn2)c1 (racemic) [Compound 13, 4-(5-chloro-2-(1-((3-methoxy-5-(1H-1,2,4-triazol-1-yl)phenyl)amino)-2-oxo-2-(6-(trifluoromethoxy)indolin-1-yl)ethyl)phenoxy)butanoic acid]
  SI: 59500

## COc1cc(NC(C(=O)N2CCc3ccc(OC(F)(F)F)cc32)c2ccc(Cl)cc2OCCC(C)(C)C(=O)O)cc(-n2cncn2)c1 (racemic) [Compound 14, 4-(5-chloro-2-(1-((3-methoxy-5-(1H-1,2,4-triazol-1-yl)phenyl)amino)-2-oxo-2-(6-(trifluoromethoxy)indolin-1-yl)ethyl)phenoxy)-2,2-dimethylbutanoic acid]
  SI: 24900

## COc1cc(NC(C(=O)N2CCc3cc(F)c(OC(F)(F)F)cc32)c2ccc(Cl)cc2OCCCC(=O)O)cc(-n2cncn2)c1 (racemic) [Compound 15, 4-(5-chloro-2-(2-(5-fluoro-6-(trifluoromethoxy)indolin-1-yl)-1-((3-methoxy-5-(1H-1,2,4-triazol-1-yl)phenyl)amino)-2-oxoethyl)phenoxy)butanoic acid]
  SI: 58700

## COc1cc(NC(C(=O)N2CCc3c(C)cc(OC(F)(F)F)cc32)c2ccc(Cl)cc2OCCCC(=O)O)cc(-n2cncn2)c1 (racemic) [Compound 16, 4-(5-chloro-2-(1-((3-methoxy-5-(1H-1,2,4-triazol-1-yl)phenyl)amino)-2-(4-methyl-6-(trifluoromethoxy)indolin-1-yl)-2-oxoethyl)phenoxy)butanoic acid]
  SI: 95800

## COc1cc(NC(C(=O)N2CCc3ccc(C(F)(F)F)cc32)c2ccc(F)cc2OCCO)cc(-n2cncn2)c1 (single isomer, unassigned) [Compound 1A]
  SI: 7.8

## COc1cc(NC(C(=O)N2CCc3cc(OC)c(C(F)(F)F)cc32)c2ccc(F)cc2OCCO)cc(-n2cncn2)c1 (single isomer, unassigned) [Compound 2A]
  SI: 43

## COc1cc(NC(C(=O)N2CCc3ccc(OC(F)(F)F)cc32)c2ccc(F)cc2OCCO)cc(-n2cncn2)c1 (single isomer, unassigned) [Compound 3A]
  SI: 22

## COc1cc(NC(C(=O)N2CCc3ccc(C(F)(F)F)cc32)c2ccc(Cl)cc2OCCO)cc(-n2cncn2)c1 (single isomer, unassigned) [Compound 4A]
  SI: 6.4

## COc1cc(NC(C(=O)N2CCc3cc(OC)c(C(F)(F)F)cc32)c2ccc(Cl)cc2OCCO)cc(-n2cncn2)c1 (single isomer, unassigned) [Compound 5A]
  SI: 275

## COc1cc(NC(C(=O)N2CCc3ccc(OC(F)(F)F)cc32)c2ccc(Cl)cc2OCCO)cc(-n2cncn2)c1 (single isomer, unassigned) [Compound 6B]
  SI: 79

## COc1cc(NC(C(=O)N2CCc3cc(F)c(C(F)(F)F)cc32)c2ccc(Cl)cc2OCCO)cc(-n2cncn2)c1 (single isomer, unassigned) [Compound 7A]
  SI: 26
